Reference: paper PMC10782225 (The FASEB Journal, 2023)

Assays:
Assay in all cases: cell-based
[1] = system: human α7β2‐nAChR
[2] = target: T1, human α7β2‐nAChR (Homo sapiens, UniProt P17787+P36544); conditions: SEM
T1 construct: expressed in transfected cells; host or cells: Xenopus laevis oocytes, cRNA injection

[3] = target: T2, human α7‐only‐nAChR (Homo sapiens, UniProt P36544); conditions: SEM
T2 construct: expressed in transfected cells; host or cells: Xenopus laevis oocytes, cRNA injection

In the case of `CC(C)C[C@@H]1NC(=O)[C@H](Cc2ccccc2)NC(=O)[C@@H]2CSSC[C@H](NC(=O)CN)C(=O)N[C@@H](CSSC[C@@H](C(N)=O)NC(=O)[C@H](Cc3ccc(O)c(I)c3)NC(=O)[C@H](CC(=O)O)NC(=O)[C@@H]3CCCN3C(=O)[C@H](CC(N)=O)NC(=O)[C@H](CC(N)=O)NC1=O)C(=O)N[C@@H](CO)C(=O)N[C@@H](Cc1c[nH]cn1)C(=O)N1CCC[C@H]1C(=O)N1CCC[C@H]1C(=O)N2` [[Y15iodo]], the “α7β2 Selectivity” value [1] is reported as 4.3x, the “N obs α7β2” value [2] is reported as 1.51 ± 0.06 and the “N off α7β2” value [2] is reported as 1.58 ± 0.11. For the same compound, the “k obs α7β2” value [2] was 71.5 ± 2.9 min^−1 (×10^−3), the koff ([2]; read-out: k off α7β2) was 5.72e-05 s⁻¹ and the kon ([2]; read-out: k on α7β2) was 37800 M⁻¹ s⁻¹. The “N obs α7‐only” value [3] was 5.78 ± 0.99, the “N off α7‐only” value [3] was 2.16 ± 0.46 and the “k obs α7‐only” value [3] was 246 ± 99 min^−1 (×10^−3). For the same compound, the koff ([3]; read-out: k off α7‐only) was 0.000177 s⁻¹ and the kon ([3]; read-out: k on α7‐only) was 27500 M⁻¹ s⁻¹.
